Values quoted from earlier work as cited in article PMC9054008 (Science Advances, 2022).

The chains behind the UniProt entries cited, without tags or fusion partners. Where a name states a change or a piece, a line headed by the entry shows the natural chain unless it says otherwise.
UniProt P14434, whole entry, looked up: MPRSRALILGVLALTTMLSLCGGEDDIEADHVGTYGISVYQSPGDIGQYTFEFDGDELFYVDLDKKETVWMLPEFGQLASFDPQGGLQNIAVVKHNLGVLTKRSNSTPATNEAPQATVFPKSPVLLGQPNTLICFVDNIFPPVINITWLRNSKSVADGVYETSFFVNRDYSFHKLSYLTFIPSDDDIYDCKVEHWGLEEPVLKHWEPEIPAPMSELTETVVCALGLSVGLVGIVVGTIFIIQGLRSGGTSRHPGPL
UniProt P14483: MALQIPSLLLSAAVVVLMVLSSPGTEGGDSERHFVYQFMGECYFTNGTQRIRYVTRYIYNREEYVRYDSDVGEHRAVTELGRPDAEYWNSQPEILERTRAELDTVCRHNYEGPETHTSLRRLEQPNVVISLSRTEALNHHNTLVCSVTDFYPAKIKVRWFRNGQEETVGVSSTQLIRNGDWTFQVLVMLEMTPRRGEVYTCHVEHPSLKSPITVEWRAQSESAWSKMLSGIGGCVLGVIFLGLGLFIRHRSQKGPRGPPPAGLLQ

Target: I-Ab (Mus musculus, UniProt P14434+P14483)
Conditions: cited from earlier work

For FSLSAAVKAGASLID, the IC50 is listed as 638 nM.
